The values below come from patent US20200123233A1.

B1: IV8 (VHH)
VHH: QVQLQESGGGLVQAGGFLRLSCAASGRSFNTYAMGWFRQAPGKEREFVAGITRSGTATDYADSVKGRFTISRDNARNTVYLQMNRLKSEDSAVYYCAAHASYDRMIYSEYKYWGQGTQVTVSS
B2: IV47 (VHH)
VHH: QVQLQQSGGGLVQAGGFLRLSCAASGRSFNTYAMGWFRQAPGKEREFVAGITRSGTATEYADSVKGRFTISRDNARNTVLLQMNRLKPEDSAVYYCAAHANYDRMINSEYKYWGQGTQVTVSS
B3: IV21 (VHH)
VHH: QVQLQQSGGGLVQAGGFLRLSCAASGRSFNTYAMGWFRQAPGKEREFVAGITRSGTATDYIDSVKGRFTISRDNARDTVYLQMNRLNPEDSAVYYCAAHANYDRMINSEYKYWGQGTQVTVSS
B4: IV45 (VHH)
VHH: QVQLQQSGGGLVQAGGFLRLSCAASGRSFNTYAVGWFRQAPGKEREFVAGITRSGTATDYADSVKGRFTISRDNARNTVYLQMNRLKPEDSAVYYCAAHASYDRMINSEYKYWGQGTQVTVSS
B5: IV48 (VHH)
VHH: QVQLQESGGGLVQAGGFLRLTCAASGRSFNTYAMGWFRQAPGKDRKFVAGITRSGTVTDYADSVKGRFTISRDNARNTVYLQMNRLKPEDSAVYYCAGHASYDRMINSEYKYWGQGTQVTVSS
B6: IV23 (VHH)
VHH: QVQLQESGGGLVQAGGFLRLSCAASGRSFNTYAMGWFRQAPGKEREFVAGITRSGTATDYIDSVKGRFTISRDNARDTVYLQMNRLNPEDSAVYYCAAHANYDRMINSEYKYWGQGTQVTVSS
B7: IV40 (VHH)
VHH: QVQLQESGGGLVQAGGSLRLSCAASGHTLNNYAMGWFRQGPGAEREFVGAISASGDSTQYTESVQGRFTISKDNAKRTVYLDMNSLKPEDTAVYYCAADGKTLTYYTSRLRSQYDYWGQGTQVTVSS
B8: IV33 (VHH)
VHH: QVQLQQSGGGLVQAGGSLRLSCAASGRTLNNYAMGWFRQAPGAEREFVGAISASGDSTQYTESVQGRFSISKDLAKSTVYLDMNSLKPEDTAVYYCAADQKTLTFYTSRLRSRYDYWGQGTQVTVSS
B9: IV42 (VHH)
VHH: QVQLQQSGGGLVQAGESLRLSCAASGRTLNNYAMGWFRQAPGAEREFVGAISASGDSTQYTESVQGRFTISKDNAKSTVYLDMNSLKPEDTAVYYCAADRKTLTFYTSRLRSRYDYWGQGTQVTVSS
B10: IV35 (VHH)
VHH: QVQLQESGGGLVQAGGSLRLSCAASGRTLNNYAMGWFRQAPGAEREFVGAISASGDSTDYTESVQGRFTISKDNAKSTVYLDMNSLKPEDTAVYYCAADRKTLTFYTSRLRSRYDYWGQGTQVTVSS
B11: IV36 (VHH)
VHH: QVQLQESGGGLVQAGGSLRLSCAASGRTLNNYAMGWFRQAPGAEREFVGAISASGDSTQYTESVQGRFTISKDYAKSTVYLDMNSLKPEDTAVYYCAADQKTLTYYTSRLRSRYDYWGQGTQVTVSS
B12: IV24 (VHH)
VHH: QVQLQESGGGLVQTGGSLRLSCAASGRTFGGYAMAWFRQAPGKGREFVAAITWSAGTTNYADSMKDRFTVSRDTANNTMYLEMNRLKPDDTAVYICGAATGYRSTDRLSTPAWINYWGQGTQVTVSS
B13: IV34 (VHH)
VHH: QVQLQESGGGLVQTGGSLRLSCAASGGTFGGYAMAWFRQAPGKGREFVASVIWNGGTTNYLDSVKDRFTVSRDMANNTMYLQMNSLKPEDTAVYICGAASGYRSTDRLSEPGWVNYWGQGTQVTVSS
B14: IV50 (VHH)
VHH: QVQLQESGGGLVQAGGFLRLSCAASGRSFNTYAMGWFRQAPGKEREFVAGITRSGTATDYADSVKGRFTISRDNARNTVYLQMNRLKPEDSAVYYCAAHASYDRMIYSEYKYWGQGTQVTVSS
B15: IV25 (VHH)
VHH: QVQLQQSGGGLVQSGGSLSLSCAASGITLNNRVVGWFRQAPGKEREFVGRIMWSVGDTFYARSVKGRFTISRDNAKNTMYLQMNALKPEDTAVYYCAAARDPDLYTGQYEYWGQGTQVTVSS
B16: IV14 (VHH)
VHH: QVQLQESGGGLVQAGGSLRLSCAASGRTLNNYAMGWFRQAPGAEREFVGAISASGDSTQYTESVQGRFTISKDNAKSTVYLDMNSLKPEDTAVYYCAADRKTLAYYTSRLRSRYDYWGQGTQVTVSS
B17: IV29 (VHH)
VHH: QVQLQESGGGLVQAGGSLRLSCVASGRTLDNYAMGWFRQAPGAEREFVGAISANGEDTQYTESVQGRFTISKDNAKSTVYLDMNSLKPEDTAVYYCAADRKTLTYYTSRLRSRYEYWGQGTQVTVSS
B18: IV31 (VHH)
VHH: QVQLQQSGGGLVQAGGSLRLSCAASGRTLNNYAMGWFRQAPGAEREFVGAISASGDSTQYTESVQGRFTISKDNAKSTVVLDMNSLKPEDTAVYYCAADGKTLTFYTSRLRSRYDYWGQGTQVTVSS
B19: IV18 (VHH)
VHH: QVQLQQSGGGLVQAGGSLRLSCAASGRTLNNYAMGWFRQAPGAEREFVGAISASGDSTQYTESVQGRFTISKDNAKSTVYLDMNSLKPEDTAVYYCAADRKTLTFYTSRLRSRYDYWGQGTQVTVSS
B20: IV15 (VHH)
VHH: QVQLQQSGGGLVQAGGSLRLSCAASGGTLNNYAMGWFRQAPGAEREFVGAISAGGDSTQYTESVQGRFTISKDNAKSTVYLDMNSLKPEDTAVYYCAADRKTLTYYTSRLRSRYDYWGQGTQVTVSS
B21: IV17 (VHH)
VHH: QVQLQESGGGLVQAGGSLRLSCAASGRTLNNYAMGWFRQAPGAEREFVGAISASGDSTQYTESVQGRFTISKDNAKSTVYLDMNSLKPEDTAVYYCAADRKTLTFYTSRLRSRYDYWGQGTQVTVSS
B22: IV5 (VHH)
VHH: QVQLQQSGGGLVQAGGSLRLSCAASGRTFSTTGMGWFRQAPGKEREFVAAFWWTGGQTFYADSVKGRFTISGDNAGNTVDLQMNSLKPEDTAVYACAAMSKPRNLWRTDSYDYWGQGTQVTVSS
B23: IV27 (VHH)
VHH: QVQLQESGGGLVQAGGSLRLSCAASGSTFSTYAMGWFRQAPGKEREFVAAFWWTDEQTFYADSVKGRFTISRGNAKNTVDLQMNSLKPEDTAVYACAAMSKPYNLWRTDSYDYWGQGTQVTVSS
B24: IV22 (VHH)
VHH: QVQLQESGGGLVQAGDSLRLSCAASGPSFNNGAMSWFRQAPGKEREFVAAIRWSGGGIRYADSVKGRFTISRDNAKNTLYLQMNSLKPEDTAVYYCAIDPRADLVATMTSIRYWGQGTQVTVSS
B25: IV37 (VHH)
VHH: QVQLQESGGGLVQAGDSLRLSCAAPGRSFSGGAMSWFRQVPGKEREFVAAIRWSGGGIRYADSVKGRFTISRDNAKNTFYLQMNSLKPEDTAVYYCAIDPRADLVATMTSIRYWGQGTQVTVSS
B26: IV38 (VHH)
VHH: QVQLQESGGGLVQAGGSLRLSCAASGPSFNNGAMSWFRQAPGKEREFVAAIRWSGGGIRYADSVKGRFTISRDNAKNTLYLQMNSLKPEDTAVYYCAIDPRADLVATMTSIRYWGQGTQVTVSS
B27: IV28 (VHH)
VHH: QVQLQESGGGLVQPGGSLRLSCSASGFAFDDYAMSWVRQAPGKGLEWVSSINWNGGSTYYAESMKGRFTISRDSAKNTLYLQMNSLKSEDTAVYYCAKGEGSANWGLDFGSWGQGTQVTVSS
B28: IV16 (VHH)
VHH: QVQLQESGGGLVQTGGSLRLSCAASGRTFGGYAMAWFRQAPGKGREFVAAVTWSSGTTNYAGSVKDRFTVSRDNGNNTMYLQMNSLKPEDTAVYICGVASGYRSTDRLSEPGWINYWGQGTQVTVSS
B29: IV26 (VHH)
VHH: QVQLQESGGGLVRTGDSLRLSCAASGRTFNGYAMAWFRQAPGKGREFVAAVTWSSGTTNYAGSVKDRFTVSRDNANNTMYLQMNSLKPEDTAVYICGAASGYRSTDRLSDPAWTNYWGQGTQVTVSS
B30: IV30 (VHH)
VHH: QVQLQESGGGLVETGGSLRLSCAASGRTFGGYAMAWFRQAPGKGREFVAAVTWTSGTTNYAGSVKDRFTVSRDNANNTMYLQMNSLKPEDTAVYICGAASGYRSPDRLSEPEWINYWGQGTQVTVSS

The first assay concerns the target authentic influenza antigen of A/Turkey/Wisconsin/68, serotype H5N9 (influenza A virus A/Turkey/Wisconsin/68 (H5N9)).
Molecule B1 gave an Extinction at 450 nm in ELISA (extinction at 450 nm) of 0.045.

B2: the Extinction at 450 nm in ELISA (extinction at 450 nm) is 0.05.

B3 gave an Extinction at 450 nm in ELISA (extinction at 450 nm) of 0.05.

With B4, the Extinction at 450 nm in ELISA (extinction at 450 nm) is 0.047.

B5 came in with an Extinction at 450 nm in ELISA (extinction at 450 nm) of 0.048.

As for B6, the Extinction at 450 nm in ELISA (extinction at 450 nm) was 0.046.

B7 registered an Extinction at 450 nm in ELISA (extinction at 450 nm) of 0.047.

Molecule B8 came in with an Extinction at 450 nm in ELISA (extinction at 450 nm) of 0.047.

In turn, B9 displayed an Extinction at 450 nm in ELISA (extinction at 450 nm) of 0.048.

Consider B10, for which the Extinction at 450 nm in ELISA (extinction at 450 nm) was 0.047.

In turn, B11 returned an Extinction at 450 nm in ELISA (extinction at 450 nm) of 0.047.

The target in a further assay is authentic influenza antigen of strain A/Turkey/Wisconsin/68, serotype H5N9 (influenza A virus A/Turkey/Wisconsin/68 (H5N9)).
In turn, B12 returned an Extinction at 450 nm in ELISA (extinction at 450 nm) of 0.047.

Molecule B13 displayed an Extinction at 450 nm in ELISA (extinction at 450 nm) of 0.079.

In the case of B14, the Extinction at 450 nm in ELISA on AIV antigens (extinction at 450 nm) was determined as 0.049.

On to B15, for which the Extinction at 450 nm in ELISA on AIV antigens (extinction at 450 nm) came to 0.047.

Regarding B16, the Extinction at 450 nm in ELISA (extinction at 450 nm) is 0.048.

In turn, B17 returned an Extinction at 450 nm in ELISA (extinction at 450 nm) of 0.048.

Molecule B18 registered an Extinction at 450 nm in ELISA (extinction at 450 nm) of 0.049.

In turn, B19 came in with an Extinction at 450 nm in ELISA (extinction at 450 nm) of 0.098.

In the case of B20, the Extinction at 450 nm in ELISA (extinction at 450 nm) is 0.05.

B21 displayed an Extinction at 450 nm in ELISA (extinction at 450 nm) of 0.046.

For B22, the Extinction at 450 nm in ELISA on AIV antigens (extinction at 450 nm) turned out to be 0.049.

B23 displayed an Extinction at 450 nm in ELISA on AIV antigens (extinction at 450 nm) of 0.048.

In turn, B24 displayed an Extinction at 450 nm in ELISA on AIV antigens (extinction at 450 nm) of 0.053.

Take B25: the Extinction at 450 nm in ELISA on AIV antigens (extinction at 450 nm) stood at 0.048.

As for B26, the Extinction at 450 nm in ELISA on AIV antigens (extinction at 450 nm) is 0.047.

As to B27, the Extinction at 450 nm in ELISA on AIV antigens (extinction at 450 nm) worked out at 0.047.

Take B28: the Extinction at 450 nm in ELISA (extinction at 450 nm) amounted to 0.045.

B29: the Extinction at 450 nm in ELISA (extinction at 450 nm) amounted to 0.097.

Consider B30, for which the Extinction at 450 nm in ELISA (extinction at 450 nm) was found to be 0.053.
